The structures appear in SMILES notation.

The data set concerns DENV-2 16681 strain labeled with eGFP. The data set can be described thus: DENV-2 antiviral assay (eGFP fluorescence read-out in Vero cells). Particulars: SI=CC50/EC50, DENV-2 antiviral assay. In kind it is cell-based, Dengue virus. Here is the method: The antiviral activity of all the compounds of the invention was tested against the DENV-2 16681 strain which was labeled with enhanced green fluorescent protein (eGPF). The culture medium consists of minimal essential medium supplemented with 2% of heat-inactivated fetal calf serum, 0.04% gentamycin (50 mg/mL) and 2 mM of L-glutamine. Vero cells, obtained from ECACC, were suspended in culture medium and 25 μL was added to 384-well plates (2500 cells/well), which already contain the antiviral compounds. Typically, these plates contain a 5-fold serial dilution of 9 dilution steps of the test compound at 200 times the final concentration in 100% DMSO (200 nL). […] Finally, each plate contains wells which are assigned as virus controls (containing cells and virus in the absence of compound), cell controls (containing cells in the absence of virus and compound) and medium controls (containing medium in the absence of cells, virus and compounds). To the wells assigned as medium control, 25 μL of culture medium was added instead of Vero cells. Once the cells were added to the plates, the plates were incubated for 30 minutes at room temperature to allow the cells to distribute evenly within the wells. Next, the plates were incubated in a fully humidified incubator (37° C., 5% CO2) until the next day. Then, DENV-2 strain 16681, labeled with eGFP, was added at a multiplicity of infection (MOI) of 0.5. Therefore, 15 μL of virus suspension was added to all the wells containing test compound and to the wells assigned as virus control. In parallel, 15 μL of culture medium was added to the medium and cell controls. Next, the plates were incubated for 3 days in a fully humidified incubator (37° C., 5% CO2). At the day of the read out, the eGFP fluorescence was measured using an automated fluorescence microscope at 488 nm (blue laser). Using an in-house LIMS system, inhibition dose response curves for each compound were calculated and the half maximal effective concentration (EC50) was determined. Therefore, the percent inhibition (I) for every test concentration is calculated using the following formula: I=100*([…])/(SVC−SCC); ST, SCC and SVC are the amount of eGFP signal in the test compound, cell control and virus control wells, respectively. The EC50 represents the concentration of a compound at which the virus replication is inhibited with 50%, as measured by a 50% reduction of the eGFP fluorescent intensity compared to the virus control. The EC50 is calculated using linear interpolation (Table 1).
For `COc1cc(NC(C(=O)c2c[nH]c3cc(F)ccc23)c2ccc(F)cc2OCCO)cc(S(C)(=O)=O)c1` (racemic) [Compound 1, 1-(6-fluoro-1H-indol-3-yl)-2-(4-fluoro-2-(2-hydroxyethoxy)phenyl)-2-((3-methoxy-5-(methylsulfonyl)phenyl)amino)ethanone], the SI turned out to be 3520.

For `COc1cc(NC(C(=O)c2c[nH]c3cc(Cl)ccc23)c2ccc(F)cc2OCCO)cc(S(C)(=O)=O)c1` (racemic) [Compound 2, 1-(6-chloro-1H-indol-3-yl)-2-(4-fluoro-2-(2-hydroxyethoxy)phenyl)-2-((3-methoxy-5-(methylsulfonyl)phenyl)amino)-ethanone], the SI is on record as 7600.

As to `COc1cc(NC(C(=O)c2c[nH]c3c(C)c(F)ccc23)c2ccc(F)cc2OCCO)cc(S(C)(=O)=O)c1` (racemic) [Compound 3, 2-(4-fluoro-2-(2-hydroxyethoxy)phenyl)-1-(6-fluoro-7-methyl-1H-indol-3-yl)-2-((3-methoxy-5-(methylsulfonyl)phenyl)amino)ethanone], the SI is 4360.

In the case of `COc1cc(NC(C(=O)c2c[nH]c3c(C)c(Cl)ccc23)c2ccc(F)cc2OCCO)cc(S(C)(=O)=O)c1` (racemic) [Compound 4, 1-(6-chloro-7-methyl-1H-indol-3-yl)-2-(4-fluoro-2-(2-hydroxyethoxy)phenyl)-2-((3-methoxy-5-(methylsulfonyl)phenyl)amino)ethanone], the SI came to 8960.

For the compound `COc1cc(NC(C(=O)c2c[nH]c3cc(F)c(F)cc23)c2ccc(F)cc2OCCO)cc(S(C)(=O)=O)c1` (racemic) [Compound 5, 1-(5,6-difluoro-1H-indol-3-yl)-2-(4-fluoro-2-(2-hydroxyethoxy)phenyl)-2-((3-methoxy-5-(methylsulfonyl)phenyl)-amino)ethanone], the SI came out at 6760.

In the case of `COc1cc(NC(C(=O)c2c[nH]c3cc(OC)c(C)cc23)c2ccc(F)cc2OCCO)cc(S(C)(=O)=O)c1` (racemic) [Compound 6, 2-(4-fluoro-2-(2-hydroxyethoxy)phenyl)-2-((3-methoxy-5-(methylsulfonyl)phenyl)amino)-1-(6-methoxy-5-methyl-1H-indol-3-yl)ethanone], the SI amounted to 4220.

Turning to `COc1cc(NC(C(=O)c2c[nH]c3c(F)cc(C)cc23)c2ccc(F)cc2OCCO)cc(S(C)(=O)=O)c1` (racemic) [Compound 8, 2-(4-fluoro-2-(2-hydroxyethoxy)phenyl)-1-(7-fluoro-5-methyl-1H-indol-3-yl)-2-((3-methoxy-5-(methylsulfonyl)phenyl)amino)ethanone], the SI stood at 3050.

For `COc1cc(NC(C(=O)c2c[nH]c3cc(OC)c(OC(F)(F)F)cc23)c2ccc(F)cc2OCCO)cc(S(C)(=O)=O)c1` (racemic) [Compound 11, 2-(4-fluoro-2-(2-hydroxyethoxy)phenyl)-2-((3-methoxy-5-(methyl-sulfonyl)phenyl)amino)-1-(6-methoxy-5-(trifluoromethoxy)-1H-indol-3-yl)ethanone], the SI is 18400.

Turning to `COc1cc(NC(C(=O)c2c[nH]c3c(C)cc(OC(F)(F)F)cc23)c2ccc(F)cc2OCCO)cc(S(C)(=O)=O)c1` (racemic) [Compound 12, 2-(4-fluoro-2-(2-hydroxyethoxy)phenyl)-2-((3-methoxy-5-(methylsulfonyl)phenyl)amino)-1-(7-methyl-5-(trifluoromethoxy)-1H-indol-3-yl)ethanone], the SI stood at 16900.

On to `COc1cc(NC(C(=O)c2c[nH]c3cc(F)ccc23)c2ccc(F)cc2OCCO)cc(S(C)(=O)=O)c1` (single isomer, unassigned) [Compound 1B, 1-(6-fluoro-1H-indol-3-yl)-2-(4-fluoro-2-(2-hydroxyethoxy)phenyl)-2-((3-methoxy-5-(methylsulfonyl)phenyl)amino)ethanone], for which the SI came out at 149.

Values taken from patent US10786484B2, “Mono- or di-substituted indole derivatives as dengue viral replication inhibitors” (Janssen Pharmaceuticals, Inc., priority 2015, dated 2020).
